Measured values published in the supplement of paper PMC9931576.
Human monoclonal antibodies against the spike receptor-binding domain (heavy:light variable regions). IC50 against pseudoviruses bearing the spike of naturally observed variants; lower = stronger; >10 µg/ml means not reached at the top dose. No active / inactive call. The stated detection limit is 0.0005 µg/ml; values near or below 0.001 µg/ml lie at the floor of the assay.

B1: BD56-1743 (protein)
chain 1: EVQLVESGGGLVQPGGSVRLSCAASGVTVSRNYMTWVRQAPGKGPEWVSVMYSGGSTFYADSVKGRFTVSRHDSKNTLYLQMNSLRQEDTAVYYCARDLVEAGAIDVWGRGTMVIVSS
chain 2: DIQMTQSPSSLSASVGDRVTITCRASEDIANSLAWYQQKPGKAPKLLLYAASTLQSGVPSRFSGSGSGTDYTLTISGLQPEDSATYYCQQYSTTLMYTFGQGTKLEIK
B2: BD56-1733 (protein)
chain 1: QVQLVQSGAEVKKPGSSVKVSCKASGGTFSSYTISWVRQAPGQGLEWMGNIMPILGIANYAQKFQGRVTIIADKSTSTAYMELSSLRSEDTAFYYCAGDLSSGWLFDNWGQGTLVTVSS
chain 2: QSVLTQPPSVSGAPGQRVTISCTGSNSNIGAGYDVHWYQQLPGTAPKLLIYGNNNRPSGVPDRFSGSKSGTSASLAITGLQAEDEADYFCQAYDSSLIGPVFGGGTKLTVL
B3: BD56-1729 (protein)
chain 1: QITLKESGPTLVKPTQTLTLTCTFSGFSLTTGGVGVGWIRQPPGKALEWLALIYWDDDKRYSPSLETRLTITKDTSKNQVVLTMTNMGPADTATYYCAHRRKLGYFISGHFGYWGRGTLVTVSS
chain 2: QSVLTQPPSTSGTPGQRVPISCSGSGSNIGTNTVNWYQQLPGTAPKLLIYSDNQRPSGVPDRFSGSKSGTSASLAINGLQSEDEAEYYCAAWDDSLSGPIFGGGTKLTVL
B4: BD56-1741 (protein)
chain 1: EVQLVESGGGLVQPGGSLRLSCAGSGFTFSSYDMHWVRQVTGKGLEWVSTIGSVGDTYYPDSVKGRFTISRENVKNSLYLQMNSLRGGDMAVYYCARGGRSYPRGNWYFDLWGRGTLVSVSS
chain 2: DIQMTQSPSSLSASVGDRITITCRASQSISNFLNWYQQKPGKAPKLLIYGASSLQSGAPSRFSGSGSGTHFTLTISSLQPEDFATYYCQQCYSSPPITFGQGTRLDVK
B5: BD56-1745 (protein)
chain 1: QLQVQESGPGLVKPSETLSLTCTVSGGFISSSTYYWGWIRQPPGKGLEWIGSFFYTGTTFYNPSLKSRLTISVDTSKNHFSVRLISVTAADTAIYFCVRHGTRLAVADSFDYWGQGTLVTVSS
chain 2: QSVLTQPPSVSGAPGQRVTLSCTGSSSNIGAGFHVHWYRQLPGTAPKLLIFANNIRPSGVPDRFAGSTSGTSASLAITGLQADDEADYYCQSFDNSLSVWVFGGGTKLTVL
B6: BD56-1739 (protein)
chain 1: QVQLQESGPGLVKPSQTLSLTCALSGVSISSGTYYWSWIRQPAGKGLEWIGRIYTSGSANYNPSFKSRVTISVDTSKNQISLKLSSVTAADTAVYFCACGGDFRYFDFWGRGTLVTVSS
chain 2: NFMLTQPHSVSESPGKTVTISCSRSSGSIAGNFVQWYQQRPGSAPTTVIYEDNERPSGVPDRFSGSIDSSSNSASLTISGLKTEDEADYYCQSWHSSSVIFGGGTKLTVL
B7: BD56-1731 (protein)
chain 1: QVQLVESGGGVVQPGRSLRLACGVSGFSFSNYGMHWVRQAPGKGLDWVAVIGSDGTSKFYADSVKGRFTISRDNSKNTLYLQMNTLRVEDTAVYYCVKESDYDILTGGPFDYWGQGTLVTVSS
chain 2: DIQMTQSPSSLSASVGDRVTITCRATLGIRNSIAWYQQKPGKAPKLLLYAASRLESGVPSRFSGSGSGTDYTLTISSLQPEDFATYYCQQYHSSPPLTFGQGTKLEIK
B8: BD56-1753 (protein)
chain 1: EVRLVESGGGLVQPGGSLRLSCAASGFTFSNDDFHWVRQIRGKGLEWVSGIGTSGDTYYSDSVKGRFTVSRENGRHSSYLQMNSLRVGDTAVYYCARGVSRDLWYFFDYWGQGALVTVSS
chain 2: DIQMTQSPSSLSASVGDRVTITCRASQSVNGYLNWYQQKPGKAPKLLIYAASHLQTGVPSRFSGSGSGTDYTLTISSLLPEDFAIYFCQQSYGAPPWTFGPGTKVEIK
B9: BD56-1738 (protein)
chain 1: EVQLVESGGGLVQPGGSLRLSCAASGFSFSNYDMHWVRQVTGKGLEWVSTIGTSGDTYYSDSVKGRFTISRENAKNSLYLQMNSLRVGDTAVYYCARVTYDSYNYRFWFDTWGQGTLVTVST
chain 2: DIQMTQSPSSLSASVGDRVTITCRASQSISNYLNWYQQKPGKAPKLLIYAASSLQSGVPSRFSASGSGTKFTLTINSLQPEDYAIYYCQQSYSSPPITFGQGTRLDIK
B10: BD56-1737 (protein)
chain 1: QVQLVQSGAEVKKPGASVKVSCKASGHTFITYTINWVRQAPGQGLEWMGWISAYDGKTNYAQNFQGRVTMTTDTSTNTAHMELRSLRSDDTAVYYCTFGDYAPHFFDYWGQGTLVTVSS
chain 2: EIVLTQSPGTLSLSPGERATLSCRASQSVSSTFLGWYQQKPGQAPRLLIYGASNRATGIPDRFSGSGSGTEFTLTISRLEPEDFAVYYCQQYGNSPLTFGGGTKVEVK
B11: BD56-1732 (protein)
chain 1: QVQLVHSGAQVKKPGASVKVSCKASGYTFSSHGIIWVRQAPGHGLEWMGWISAYNGNTKYAQKFQDRLTMTTDTSTTTATMELRSLRSDDTAVYYCARVKGIWFGVDYWGQGTLVTVSS
chain 2: NFMLTQPHSVSESPGKTVTISCTGSSGSIATNYVHWYQQRPGSAPTTIISEDNRRPSGVPDRFSGSVDSSSNSASLTISGLKTEDEADYYCQSYDGTGVVFGGGTKLTVL
B12: BD56-1736 (protein)
chain 1: QVQLQESGPGLVKPSQTLSLTCSVSGGSISSGTYYWSWIRQPAGKGLEWIGRIYTSGSANYTPSLKSRITISVDTSKNQFSLKLNSVTAADTAVYYCACGGDFRYFDLWGRGTLITVSS
chain 2: NFMLTQPHSVSESPGKTVTISCTRSSGSIAGNYVQWYQQRPGSAPTTLIYEDNLRPSGVPDRFSGSIDSSSNSASLTISGLKTEDEADYYCQSYNGGNVVFGGGTKLTVL
B13: BD56-1724 (protein)
chain 1: QVQLVQSGSELKKPGASVKVSCKASGYTFIRHAMNWVRQAPGQGLEWMGWINTNTGSPTYAQGFTGRFVFSLDTSVSTAYLQISSLKAEDTAVYYCARASYYGSGMEYYYAMDVWGQGTPVTVSS
chain 2: SYVLTQPPSVSVAPGQTAKLTCGGDSIGSKSVHWYQQKPAQAPVLVVFDDSDRPSGIPARFSGSNSGNTATLTISRVEAGDEADYYCQVWDTAGVFGGGTKLTVL

Experiments:
Test in all cases: pseudovirus neutralization IC50; higher = weaker neutralization
[1] = biological target: SARS-CoV-2 Omicron BA.1 spike pseudovirus
Method: (§1)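 Single-round VSV luciferase pseudovirus mixed with antibody dilutions for 1 h and put on Huh-7 cells for about a day; IC50 from the dose curve.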

[2] = biological target: SARS-CoV-2 Omicron BA.2 spike pseudovirus
Method: as §1

[3] = biological target: SARS-CoV-2 Omicron BA.2.75 spike pseudovirus
Method: as §1

[4] = biological target: SARS-CoV-2 Omicron BA.5 spike pseudovirus
Method: as §1

[5] = biological target: SARS-CoV-2 Omicron BQ.1.1 spike pseudovirus
Method: as §1

[6] = biological target: SARS-CoV-2 Omicron XBB spike pseudovirus
Method: as §1

[7] = biological target: SARS-CoV-2 early D614G spike pseudovirus
Method: as §1

| Binder | pseudovirus neutralization IC50 [1] | pseudovirus neutralization IC50 [2] | pseudovirus neutralization IC50 [3] | pseudovirus neutralization IC50 [4] | pseudovirus neutralization IC50 [5] | pseudovirus neutralization IC50 [6] | pseudovirus neutralization IC50 [7] |
| --- | --- | --- | --- | --- | --- | --- | --- |
| B1 | 0.00089 µg/mL | 0.000921 µg/mL | 0.00491 µg/mL | 0.0025 µg/mL | 5.75 µg/mL | > 10 µg/mL | 0.00565 µg/mL |
| B2 | > 10 µg/mL | > 10 µg/mL | > 10 µg/mL | > 10 µg/mL | > 10 µg/mL | > 10 µg/mL | 0.0443 µg/mL |
| B3 | 0.917 µg/mL | 0.791 µg/mL | 0.173 µg/mL | > 10 µg/mL | > 10 µg/mL | > 10 µg/mL | 0.0478 µg/mL |
| B4 | > 10 µg/mL | > 10 µg/mL | > 10 µg/mL | > 10 µg/mL | > 10 µg/mL | > 10 µg/mL | 0.719 µg/mL |
| B5 | > 10 µg/mL | > 10 µg/mL | > 10 µg/mL | > 10 µg/mL | > 10 µg/mL | > 10 µg/mL | > 10 µg/mL |
| B6 | 0.0985 µg/mL | 0.0663 µg/mL | 0.0415 µg/mL | > 10 µg/mL | > 10 µg/mL | > 10 µg/mL | 0.0291 µg/mL |
| B7 | 3.7 µg/mL | 3.51 µg/mL | 3.6 µg/mL | 5.34 µg/mL | 8.69 µg/mL | 8.71 µg/mL | 0.782 µg/mL |
| B8 | > 10 µg/mL | > 10 µg/mL | > 10 µg/mL | > 10 µg/mL | > 10 µg/mL | > 10 µg/mL | > 10 µg/mL |
| B9 | > 10 µg/mL | > 10 µg/mL | > 10 µg/mL | > 10 µg/mL | > 10 µg/mL | > 10 µg/mL | > 10 µg/mL |
| B10 | 0.058 µg/mL | 0.0571 µg/mL | 0.274 µg/mL | 0.32 µg/mL | > 10 µg/mL | > 10 µg/mL | 0.154 µg/mL |
| B11 | 1.08 µg/mL | 2.53 µg/mL | 5.82 µg/mL | 3.57 µg/mL | 5.24 µg/mL | 4.37 µg/mL | 0.144 µg/mL |
| B12 | 0.0809 µg/mL | 0.0553 µg/mL | 0.062 µg/mL | 4.96 µg/mL | > 10 µg/mL | > 10 µg/mL | 0.0548 µg/mL |
| B13 | > 10 µg/mL | > 10 µg/mL | > 10 µg/mL | > 10 µg/mL | > 10 µg/mL | > 10 µg/mL | > 10 µg/mL |
